The source of these data is patent publication US12497405B2, “Bicyclic heterocycle compounds methods of use thereof for the treatment of herpes viruses” (Merck Sharp & Dohme LLC, priority 2019, dated 2025).

Sequences of proteins named here, by UniProt entry; tags and fusion partners are left off.
UniProt P08546, whole entry: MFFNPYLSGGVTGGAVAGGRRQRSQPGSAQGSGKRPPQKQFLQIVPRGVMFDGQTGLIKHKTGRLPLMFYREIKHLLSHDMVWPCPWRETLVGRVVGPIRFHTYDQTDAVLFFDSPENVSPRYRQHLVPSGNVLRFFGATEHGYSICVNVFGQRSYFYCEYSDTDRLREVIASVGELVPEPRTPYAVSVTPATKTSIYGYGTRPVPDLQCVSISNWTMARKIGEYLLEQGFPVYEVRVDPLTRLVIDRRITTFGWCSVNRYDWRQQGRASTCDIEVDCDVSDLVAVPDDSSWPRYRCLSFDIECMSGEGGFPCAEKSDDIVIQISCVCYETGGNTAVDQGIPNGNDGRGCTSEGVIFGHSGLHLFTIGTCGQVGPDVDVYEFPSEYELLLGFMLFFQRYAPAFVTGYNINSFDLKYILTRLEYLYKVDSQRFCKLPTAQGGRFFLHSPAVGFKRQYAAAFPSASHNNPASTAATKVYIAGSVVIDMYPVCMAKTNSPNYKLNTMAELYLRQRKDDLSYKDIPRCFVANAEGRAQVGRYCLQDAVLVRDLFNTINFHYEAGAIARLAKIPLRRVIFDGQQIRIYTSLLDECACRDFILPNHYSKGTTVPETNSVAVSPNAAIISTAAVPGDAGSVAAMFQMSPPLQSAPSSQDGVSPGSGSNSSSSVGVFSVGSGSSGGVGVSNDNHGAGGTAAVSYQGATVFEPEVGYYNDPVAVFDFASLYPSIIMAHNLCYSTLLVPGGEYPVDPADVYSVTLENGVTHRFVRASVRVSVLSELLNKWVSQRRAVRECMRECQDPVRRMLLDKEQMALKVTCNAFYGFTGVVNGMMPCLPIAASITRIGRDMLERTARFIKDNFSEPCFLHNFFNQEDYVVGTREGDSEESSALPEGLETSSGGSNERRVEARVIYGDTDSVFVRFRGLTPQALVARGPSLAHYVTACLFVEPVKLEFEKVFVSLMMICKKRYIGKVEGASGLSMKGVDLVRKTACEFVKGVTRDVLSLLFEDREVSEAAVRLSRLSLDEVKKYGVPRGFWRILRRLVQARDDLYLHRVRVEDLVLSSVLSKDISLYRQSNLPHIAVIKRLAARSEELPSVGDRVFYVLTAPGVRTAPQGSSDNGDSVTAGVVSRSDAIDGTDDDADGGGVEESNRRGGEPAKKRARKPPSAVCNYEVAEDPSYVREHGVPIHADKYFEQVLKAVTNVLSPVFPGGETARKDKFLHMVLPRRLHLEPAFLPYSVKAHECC
UniProt P09252, whole entry: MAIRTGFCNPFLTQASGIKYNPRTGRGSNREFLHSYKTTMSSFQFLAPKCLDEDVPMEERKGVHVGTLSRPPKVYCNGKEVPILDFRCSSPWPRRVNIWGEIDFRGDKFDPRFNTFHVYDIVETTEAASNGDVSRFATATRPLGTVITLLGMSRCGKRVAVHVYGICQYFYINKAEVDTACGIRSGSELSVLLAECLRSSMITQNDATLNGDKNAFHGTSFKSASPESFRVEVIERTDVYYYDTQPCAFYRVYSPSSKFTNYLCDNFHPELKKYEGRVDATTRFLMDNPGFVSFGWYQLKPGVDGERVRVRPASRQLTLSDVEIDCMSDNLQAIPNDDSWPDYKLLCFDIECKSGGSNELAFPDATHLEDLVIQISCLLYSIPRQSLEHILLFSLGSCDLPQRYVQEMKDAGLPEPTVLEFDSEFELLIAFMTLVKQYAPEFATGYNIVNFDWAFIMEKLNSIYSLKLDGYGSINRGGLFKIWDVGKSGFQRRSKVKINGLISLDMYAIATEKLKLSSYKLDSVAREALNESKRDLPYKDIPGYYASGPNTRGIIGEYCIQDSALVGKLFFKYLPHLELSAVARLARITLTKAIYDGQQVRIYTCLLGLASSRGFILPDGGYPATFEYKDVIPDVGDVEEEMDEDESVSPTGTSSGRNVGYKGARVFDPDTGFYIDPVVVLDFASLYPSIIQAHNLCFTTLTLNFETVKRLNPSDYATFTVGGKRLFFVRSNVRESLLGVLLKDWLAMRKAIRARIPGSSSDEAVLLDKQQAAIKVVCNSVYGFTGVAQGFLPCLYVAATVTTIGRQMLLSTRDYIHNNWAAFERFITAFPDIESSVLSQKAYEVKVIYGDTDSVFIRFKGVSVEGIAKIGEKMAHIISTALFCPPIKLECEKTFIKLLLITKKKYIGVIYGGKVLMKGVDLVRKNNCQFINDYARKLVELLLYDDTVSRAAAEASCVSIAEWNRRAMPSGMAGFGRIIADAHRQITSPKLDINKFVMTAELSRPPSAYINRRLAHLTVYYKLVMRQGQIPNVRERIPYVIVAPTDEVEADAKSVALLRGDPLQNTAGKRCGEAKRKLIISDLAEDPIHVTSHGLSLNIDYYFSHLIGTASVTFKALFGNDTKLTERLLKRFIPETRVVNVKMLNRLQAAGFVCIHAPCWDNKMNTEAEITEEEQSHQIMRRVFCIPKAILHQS

For test [1], the target named is Human cytomegalovirus DNA polymerase (Human cytomegalovirus (strain AD169) (HHV-5) (Human herpesvirus 5), UniProt P08546). In words: CMV polymerase assay (AlphaLISA). The following applies: read-out: CMV IC50; HCMV polymerase 0.2 nM, 30 min pre-incubation, 60 minute at 37° C. The class given is biochemical. As to the method: (§1) Human cytomegalovirus and varicella zoster virus DNA polymerases were expressed via baculovirus vector in SF21 cells and purified. Heterodimeric nucleic acid substrate used in the herpesvirus polymerase reactions were generated by annealing a 59-mer template to a 17-mer digoxigenin-labeled primer. Polymerase (HCMV final concentration of 0.2 nM; VZV final concentration of 0.4 nM) was combined with an inhibitor compound or DMSO in assay buffer (10 mM HEPES, pH 7.5, 25 mM KCl, 25 mM NaCl, 5 mM MgCl2, 5% glycerol, 0.67 mg/ml bovine serum albumin, and 1 mM tris(2-carboxyethyl)phosphine)), and this mixture was pre-incubated for 30 minutes at room temperature in 384-well microtiter plates. The polymerization reaction was initiated by the addition of template/primer substrate (final concentration: 1.6 nM), and dNTPs (final concentration: 24 nM dCTP, 24 nMdGTP, 16 nM dATP, 16 nM dTTP, and 0.8 nM biotin-dUTP). After a 60 minute incubation period at 37° C., the reactions were terminated using quench buffer (25 mM HEPES pH 7.5, 100 mM NaCl, 0.25% Tween-20, 12 mM EDTA, and 1 mg/ml bovine serum albumin). Incorporation of biotinylated UTP was detected with 2.5-5 μg/mL anti-DIG AlphaLISA acceptor beads and 5-10 μg/mL streptavidin AlphaLISA donor beads (PerkinElmer). […]
On the technique in general: Bead proximity is the source of the signal in Alpha formats.

The target of test [2] is varicella zoster virus DNA polymerase (Varicella-zoster virus (strain Dumas) (HHV-3) (Human herpesvirus 3), UniProt P09252). Kind of test: VZV polymerase assay (AlphaLISA). The class given is biochemical. The note with it: read-out: VZV IC50; VZV polymerase 0.4 nM, 30 min pre-incubation, 60 minute at 37° C. As to the method:
as §1

For another test, the system named is HSV2. Kind of test: Viral qPCR assay, HSV2. The format is cell-based. The note with it: read-out: HSV2 Cell EC50; infected cells, ~72 hrs, viral genome copies by qPCR normalized to PPIA. As to the method: (§2) MRC5 cells, Vero cells, and MeWo cells were obtained from ATCC, and were maintained at 37° C./5% CO2/90% relative humidity in Minimal Essential Medium with 10% fetal bovine serum, […] L-glutamine, 100 units/ml penicillin and 100 ug/ml streptomycin. Assay plates were prepared by dispensing compounds dissolved in DMSO into wells of 384 well collagen-coated plates using an ECHO acoustic dispenser. Each test compound was tested in a 10-point, serial 3-fold dilution. Controls included uninfected cells and infected cells treated only with DMSO. Assays were initiated by mixing selected cells, in suspension, with virus, and dispensing 50 μl/well infected cells to pre-plated compounds. […] Levels of the selected viral gene and of the cellular control, PPIA, were measured in separate 10 μl qPCR assays using TaqMan® Gene Expression Master Mix (Applied Biosystems), and an 7900HT Fast Real-Time PCR System with 384-Well Block Module. 7-point, serial 10-fold dilutions of a plasmid standard were run on each plate to generate a standard curve, and genome copies numbers were calculated by plotting experimental Ct onto linear regression of the standard curve. […] Calculated % effects were fit using a 4-parameter algorithm, and EC50 was reported.
In general terms: Real-time PCR tracks product formation cycle by cycle.

Another test has as its system HSV1. Kind of test: Viral qPCR assay, HSV1. The following applies: read-out: HSV1 Cell EC50; infected cells, ~72 hrs, viral genome copies by qPCR normalized to PPIA. The format is cell-based. As to the method:
as §2

The next test deals with CMV. In words: Viral qPCR assay, CMV. The class given is cell-based. The following applies: read-out: CMV Cell EC50; infected cells, ~72 hrs, viral genome copies by qPCR normalized to PPIA. As to the method:
as §2

For orientation: IC50 means the concentration at which inhibition is half-maximal. What is called EC50 is the midpoint of the concentration-response curve. As to `CCc1nc2cc(-c3cnn(C(F)F)c3)c(O[C@H]3CCN4C(=O)OC[C@@H]4C3)cc2c(=O)n1Cc1ccc(C#N)cc1`, the IC50 stood at 4 nM in test [1] and 1 nM in test [2]. The EC50 in the test on HSV2 stood at 50 nM; in the test with HSV1, 53 nM; with CMV, 77 nM.
